{"source": "patent US20230285545A1", "target": "Human ACE2-Fc (human) (UniProt Q9BYF1)"}
{"substance": "recombinant receptor-binding domain (RBD) protein of SARS-CoV-2 spike protein (ligand)", "values": [{"measurement": "Kd", "result": 1.54, "unit": "nM"}]}
